Source: patent publication US20040229898A1, “Cyclic bis-compounds clearing malformed proteins” (priority 2001, published 2004)

Columns and labels:
PrP^Sc in ScN2a cells [1] = target: T1, PrP^Sc in ScN2a cells (Mus musculus, UniProt P04925); assay: PrP^Sc inhibition in permanently scrapie-infected neuroblastoma cells (ScN2a), one week treatment, immunoblot; details: range tested
PrP^Sc in ScN2a cells [2] = target: T1, PrP^Sc in ScN2a cells; assay: PrP^Sc inhibition screening assay in ScN2a cells (three days, immunoblot densitometry); details: for % PrP^Sc (±SEM) 50 nM / % PrP^Sc (±SEM) 200 nM / % PrP^Sc (±SEM) 400 nM: three days, ScN2a, PK-resistant PrP remaining versus untreated control
PrP^Sc in ScN2a cells [3] = target: T1, PrP^Sc in ScN2a cells; assay: Dose-dependent reduction of PrP^Sc in ScN2a cells by compound 11, seven days, immunoblot
PrP^Sc in ScN2a cells [4] = target: T1, PrP^Sc in ScN2a cells; assay: Accumulation of proteinase K resistant PrP^Sc in ScN2a cells treated with optical isomers of quinacrine; details: 0-0.4 micromolar, six days

Row | Molecule | anti-PrP^Sc effect, in words (PrP^Sc in ScN2a cells [1]) | % PrP^Sc (±SEM) 50 nM (PrP^Sc in ScN2a cells [2]) | % PrP^Sc (±SEM) 200 nM (PrP^Sc in ScN2a cells [2]) | % PrP^Sc (±SEM) 400 nM (PrP^Sc in ScN2a cells [2]) | also measured
1 | CCN(CC)CCCC(C)Nc1cc(OC)cc2cccnc12 (centres unmarked) | did not inhibit PrP^Sc at the same potency as quinacrine | – | – | – | –
2 | CCN(CC)CCCC(C)Nc1ccnc2cc(Cl)ccc12 (centres unmarked) | did not inhibit PrP^Sc at the same potency as quinacrine | – | – | – | –
3 | CN(C)c1ccc2nc3ccc(=[N+](C)C)cc-3sc2c1 | did not exhibit any anti-PrP^Sc effects | – | – | – | –
4 | O=C(CCCN1CCC(O)(c2ccc(Cl)cc2)CC1)c1ccc(F)cc1 | did not inhibit PrP^Sc formation or accumulation | – | – | – | –
5 | COc1ccc2nc3cc(Cl)ccc3c(NCCCN3CCN(CCCNc4c5ccc(Cl)cc5nc5ccc(OC)cc45)CC3)c2c1 [Compound 11, (6-chloro-2-methoxy-acridin-9-yl)-(3-{4-[3-(6-chloro-2-methoxy-acridin-9-ylamino)-propyl]-piperazin-1-yl}-propyl)-amine] | – | 61(±3) % | 19(±5) % | 4(±2) % | reduction of PrP^Sc concentration in ScN2a cells, in words (PrP^Sc in ScN2a cells [3]; 10 nM to 200 nM, seven days): dose-dependent manner; bioactivity when incubated with the lysosomotropic agent chloroquine (PrP^Sc in ScN2a cells [3]; cultures of ScN2a cells, results not shown): not compromised
6 | COc1ccc2nc3cc(Cl)ccc3c(NCCOCCOCCNc3c4ccc(Cl)cc4nc4ccc(OC)cc34)c2c1 [Compound 13, N,N′-Bis-(6-chloro-2-methoxy-acridin-9-yl)-1,8-diamino-3,6-dioxaoctane] | – | 41(±8) % | 29(±8) % | 15(±7) % | –
7 | CCCN(CCCCNc1c2ccc(Cl)cc2nc2ccc(OC)cc12)CCCNc1c2ccc(Cl)cc2nc2ccc(OC)cc12 [Compound 15, N-(6-Chloro-2-methoxy-acridin-9-yl)-N′-[3-(6-chloro-2-methoxy-acridin-9-ylamino)-propyl]-N′-propyl-butane-1,4-diamine] | – | 88(±2) % | 41(±6) % | 11(±1) % | –
8 | COc1ccc2nc3cc(Cl)ccc3c(NCCCCN(CCCNc3c4ccc(Cl)cc4nc4ccc(OC)cc34)C(=O)C(C)NC(=O)OC(C)(C)C)c2c1 (centres unmarked) [Compound 17, (1-{[4-(6-chloro-2-methoxy-acridin-9-ylamino)-butyl]-[3-(6-chloro-2-methoxy-acridin-9-ylamino)-propyl]-carbamoyl}-ethyl)-carbamic acid tert-butyl ester] | – | 84(±10) % | 36(±1) % | 7(±1) % | –
9 | COc1ccc2nc3cc(Cl)ccc3c(NCCCCCCCCNc3c4ccc(Cl)cc4nc4ccc(OC)nc34)c2n1 [Compound 21, N,N′-Bis-(7-chloro-2-methoxy-benzo[b][1,5]naphthyridin-10-yl)-octane-1,8-diamine] | – | 100(±6) % | 88(±8) % | 77(±3) % | activity against PrP^Sc relative to a comparator, in words (PrP^Sc in ScN2a cells [2]; ScN2a screen, Table 2): reduced bioactivity
10 | (+)-quinacrine | – | – | – | – | activity compared to the (L) optical isomer (PrP^Sc in ScN2a cells [4]): substantially greater activity
